The target of test [1] is Shc1-pTyr317. Briefly: FP.
Test [2] concerns the target T1, L. drancourtii LeSH4 SH2 domain (Ser3-Asp170) (Legionella drancourtii).
T1 chain: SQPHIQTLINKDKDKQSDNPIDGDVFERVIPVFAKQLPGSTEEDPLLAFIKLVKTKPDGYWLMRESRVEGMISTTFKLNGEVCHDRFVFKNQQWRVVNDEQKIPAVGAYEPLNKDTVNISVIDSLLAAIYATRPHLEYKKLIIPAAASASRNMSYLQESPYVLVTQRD
Briefly: FP.

In PMC6208348 (2018) one finds Kd data, which are given here for three molecules.

B1: m17 (domain or fragment)
chain: T1 chain
One may read the Kd as the constant that tells how readily two partners part at equilibrium. Low readings indicate tighter binding, high ones weaker binding. Take B1: in test [1], the Kd turned out to be 1580 nM. As for YFTYDPYSEEDPD [IL2Rβ pTyr387 peptide (fluorescein-labelled)], the Kd in test [2] is 2000 nM.

For GGTGG [pThr-containing version of GGpYGG], the equilibrium dissociation constant (Kd) in test [2] is above 50000 nM.
